Consider one molecule from patent US20140018418A1 (priority 2007, published 2014).

The experiment concerns the target neuraminidase of H5N1 influenza virus A/Hanoi/30408/2005 (clone 9), oseltamivir resistant strain (Influenza A virus, UniProt Q3C1C4).

Consider `CC(=O)N[C@H]1[C@H]([C@H](O)[C@H](O)CO)OC(C(=O)O)=C[C@@H]1N=C(N)N` [Zanamivir, reference compound], for which the IC50 (as a rule, the midpoint of a concentration-inhibition curve) was determined as 0.81 nM.
